Anti-infective test results gathered from many reports (values: NIAID ChemDB through PubChem).

All rows: tests in culture; organism: Cryptococcus neoformans

Blank or dashed fields: not listed here.

smiles,method,measure,strain or isolate,value
C[C@@H](n1cnc2cc(Cl)ccc2c1=O)[C@](O)(Cn1cncn1)c1ccc(F)cc1F,-,MIC,Isolate 158.03,1.25 µg/mL
COc1ccccc1/C=C1\COc2ccccc2C1=O,-,MIC,93/V,50 µg/mL
CCOC(=O)c1c(C)nc(NCCCNc2ccnc3cc(Cl)ccc23)nc1-c1ccccc1,-,MIC99,27JF,16 µg/mL
COc1ccc(/C=C2\CCc3ccccc3C2=O)cc1OC,-,MIC,Farwania,25 µg/mL
O=[N+]([O-])c1ccc(C=Nc2ccccc2O)cc1,broth dilution,MIC,27JF,32 µg/mL
C[C@@H](c1ncncc1F)[C@](O)(Cn1cncn1)c1ccc(F)cc1F,broth dilution,MIC,Clinical isolate (IM 031631),0.03 µg/mL
C[C@H]([C@](O)(Cn1cncn1)c1ccc(F)cc1F)S(C)(=O)=O,-,EC50,R718 (AZOLE-R),2 µM
Oc1ccccc1N=Cc1ccc2c(c1)OCO2,-,MIC99,WP,5.7 µg/mL
O=C1/C(=C/c2ccc3ccccc3c2)CSc2ccc(Cl)cc21,-,MIC,93/V,50 µg/mL
CCC(C)CC(C)CCCCCCCCC(=O)N[C@H]1C[C@@H](O)[C@H](NCCN)NC(=O)[C@@H]2[C@@H](O)CCN2C(=O)[C@H]([C@H](O)CCN)NC(=O)[C@H]([C@H](O)[C@@H](O)c2ccc(O)cc2)NC(=O)[C@@H]2C[C@@H](O)CN2C(=O)[C@H]([C@@H](C)O)NC1=O,broth dilution,MIC,B 36535,8 µg/mL
Cc1nc(NCCCCNc2ccnc3cc(Cl)ccc23)nc(-c2ccccc2[N+](=O)[O-])c1C(=O)OC(C)C,-,MIC99,VM-MCMMPI,8 µg/mL
Cn1nc(Cc2ccc(Cl)cc2)c2ccccc2c1=O,broth dilution,MIC80,Clinical isolate (IM 983040),3.9 µg/mL
Oc1ccccc1N=Cc1cccc(O)c1O,-,MIC99,VM-MCMMPI,4 µg/mL
O=C1/C(=C/c2ccccc2[N+](=O)[O-])CCc2ccccc21,-,MIC,25,100 µg/mL
CCC(C)n1ncn(-c2ccc(N3CCN(c4ccc(OC[C@H]5CO[C@](Cn6cncn6)(c6ccc(Cl)cc6Cl)O5)cc4)CC3)cc2)c1=O,-,MFC99,A28201,4 µg/mL
COc1ccc(/C=C2\COc3ccc(SC)cc3C2=O)cc1,-,MIC,93/V,50 µg/mL
CN[C@H]1CC[C@@H](c2ccc(Cl)c(Cl)c2)c2ccccc21,broth dilution,MFC,93BC2-52,8 µg/mL
CCOC(=O)c1c(C)nc(OCCCNc2ccnc3cc(Cl)ccc23)nc1-c1ccccc1,-,MIC99,ATCC 62066,8 µg/mL
COc1ccc(/C=C2\CSc3ccccc3C2=O)cc1OC,-,MIC,25,50 µg/mL
Oc1cccc(C=Nc2ccccc2O)c1,broth dilution,MIC,LMM 820,2.8 µg/mL
O=C1/C(=C/c2ccccc2O)COc2ccccc21,-,MIC,93/V,25 µg/mL

A second listing of 2 rows from above:

{"smiles": "O=C1/C(=C/c2ccccc2O)COc2ccccc21", "measure": "MIC", "strain or isolate": "93/V", "value": "25 µg/mL"}
{"smiles": "CCOC(=O)c1c(C)nc(OCCCNc2ccnc3cc(Cl)ccc23)nc1-c1ccccc1", "measure": "MIC99", "strain or isolate": "ATCC 62066", "value": "8 µg/mL"}

A number after MIC or MFC names an inhibition level or a share of isolates. ECn: concentration that inhibits the pathogen or its effect by n%. Lines come from different laboratories, so protocols vary.